Data as given in US10208045B2, “Aza-pyridone compounds and uses thereof” (Alios BioPharma, Inc., priority 2015, dated 2019).

Legend:
[1] = target: Full length EN PA (influenza endonuclease) (Influenza A virus, UniProt P15659); assay: EN PA FRET inhibition assay; assay type: biochemical; details: read-out: Potency (IC50 class), 50 Nm FRET probe, mean of a minimum of two independent experiments
[2] = tested on: Influenza strain A549_A/WSN/33 (H1N1); assay: Influenza antiviral assay (neuraminidase fluorescence readout in A549 or MDCK cells); assay type: cell-based, Influenza A virus; details: read-out: % Inhibition (EC50 class)

## O=C1c2c(O)c(=O)cnn2[C@@H](C(c2ccccc2)c2ccccc2)CN1CCC(F)(F)F
[1]
  IC50: < 0.25 µM
[2]
  EC50: < 20 µM

## CCCN1C[C@H](C2c3cccc(F)c3CCc3c(F)cccc32)n2ncc(=O)c(O[C@H](C)OC(=O)OCC)c2C1=O (relative stereo)
[1]
  IC50: > 1 µM
[2]
  EC50: < 20 µM

## COC(=O)c1nn([C@H](c2ccccc2)[C@H]2CN(C)C(=O)c3c(O)c(=O)cnn32)c2ccccc12 (relative stereo)
[1]
  IC50: < 0.25 µM
[2]
  EC50: < 20 µM

## CC(C)N1C[C@H](C2c3ccccc3CCc3ccccc32)n2ncc(=O)c(OCOC(=O)C(C)(C)N)c2C1=O
[1]
  IC50: < 0.25 µM

## CC(C)N1C[C@H](C2c3cccc(Cl)c3CCc3c(Cl)cccc32)n2ncc(=O)c(O)c2C1=O
[1]
  IC50: < 0.25 µM
[2]
  EC50: < 20 µM

## CC(C)C[C@H](N)C(=O)OCOc1c2n(ncc1=O)[C@@H](C1c3cccc(F)c3CCc3c(F)cccc31)CN(C(C)C)C2=O
[1]
  IC50: < 0.25 µM
[2]
  EC50: < 20 µM

## CCCN1C[C@H](C2c3cccc(F)c3CCc3c(F)cccc32)n2ncc(=O)c(OCOC(=O)C(C)(C)N)c2C1=O
[1]
  IC50: < 0.25 µM
[2]
  EC50: < 20 µM

## O=C1c2c(O)c(=O)cnn2[C@@H](C(c2ccccc2)c2ccccc2)CN1CC=C(F)F
[1]
  IC50: < 0.25 µM
[2]
  EC50: < 20 µM

## CCC(=O)Oc1c2n(ncc1=O)[C@@H](C1c3cccc(F)c3CCc3c(F)cccc31)CN(C(C)C)C2=O
[1]
  IC50: < 0.25 µM
[2]
  EC50: < 20 µM

## CCn1cc([C@@H](c2ccccc2)[C@H]2CN(C)C(=O)c3c(O)c(=O)cnn32)c2ccccc21 (relative stereo)
[1]
  IC50: 0.25 to 1 µM
[2]
  EC50: < 20 µM

## CCCN1C[C@H](C2c3cccc(F)c3CCc3c(F)cccc32)n2ncc(=O)c(OCOC(=O)[C@@H](N)C(C)C)c2C1=O
[1]
  IC50: < 0.25 µM
[2]
  EC50: < 20 µM

## CC(F)(F)CN1C[C@H](C2c3ccccc3CCc3ccccc32)n2ncc(=O)c(O)c2C1=O
[1]
  IC50: < 0.25 µM
[2]
  EC50: < 20 µM

## COC(=O)c1nn([C@@H](c2ccccc2)[C@H]2CN(C)C(=O)c3c(O)c(=O)cnn32)c2ccccc12 (relative stereo)
[1]
  IC50: < 0.25 µM
[2]
  EC50: < 20 µM

## O=C1c2c(O)c(=O)cnn2[C@@H](C2c3ccccc3CCc3ccccc32)CN1CC(F)F
[1]
  IC50: < 0.25 µM
[2]
  EC50: < 20 µM

## CC(C)N1C[C@H](C2c3ccccc3CCc3ccccc32)n2ncc(=O)c(OCOC(=O)[C@H](N)Cc3ccccc3)c2C1=O
[1]
  IC50: < 0.25 µM

## CC(C)N1C[C@H](C2c3cccc(F)c3CCc3c(F)cccc32)n2ncc(=O)c(OCOC(=O)[C@@H](N)Cc3ccccc3)c2C1=O
[1]
  IC50: < 0.25 µM
[2]
  EC50: < 20 µM

## O=C1c2c(O)c(=O)cnn2[C@@H](C2c3ccccc3CCc3ccccc32)CN1CC(F)(F)F
[1]
  IC50: < 0.25 µM
[2]
  EC50: < 20 µM

## CC[C@H](C)[C@H](N)C(=O)OCOc1c2n(ncc1=O)[C@@H](C1c3cccc(F)c3CCc3c(F)cccc31)CN(C(C)C)C2=O
[1]
  IC50: < 0.25 µM
[2]
  EC50: < 20 µM

## CCCN1C[C@H](C2c3cccc(F)c3CCc3c(F)cccc32)n2ncc(=O)c(OCOC(=O)[C@H](N)Cc3ccccc3)c2C1=O
[1]
  IC50: < 0.25 µM
[2]
  EC50: < 20 µM

## O=C1c2c(O)c(=O)cnn2[C@@H](C2c3ccccc3CCc3ccccc32)CN1CCC(F)(F)F
[1]
  IC50: < 0.25 µM
[2]
  EC50: < 20 µM

## CN1CC(C(c2ccccc2)n2ncc3ccccc32)n2ncc(=O)c(O)c2C1=O (stereo not drawn)
[1]
  IC50: < 0.25 µM
[2]
  EC50: < 20 µM

## CC(C)[C@@H](N)C(=O)OCOc1c2n(ncc1=O)[C@@H](C1c3ccccc3CCc3ccccc31)CN(C(C)C)C2=O
[1]
  IC50: < 0.25 µM
[2]
  EC50: < 20 µM

## CC(C)N1C[C@H](C2c3ccccc3CCc3ccccc32)n2ncc(=O)c(OCOC(=O)[C@@H](N)Cc3ccccc3)c2C1=O
[1]
  IC50: < 0.25 µM

## CC(C)[C@@H](N)C(=O)OCOc1c2n(ncc1=O)[C@@H](C1c3cccc(F)c3CCc3c(F)cccc31)CN(C(C)C)C2=O
[1]
  IC50: < 0.25 µM
[2]
  EC50: < 20 µM

## CC(C)C[C@@H](N)C(=O)OCOc1c2n(ncc1=O)[C@@H](C1c3cccc(F)c3CCc3c(F)cccc31)CN(C(C)C)C2=O
[1]
  IC50: < 0.25 µM
[2]
  EC50: < 20 µM

## CC(C)N1C[C@H](C2c3cccc(F)c3CCc3c(F)cccc32)n2ncc(=O)c(OCOC(=O)[C@H](N)Cc3ccccc3)c2C1=O
[1]
  IC50: < 0.25 µM
[2]
  EC50: < 20 µM

## CC(C)N1C[C@H](C2c3cccc(F)c3CCc3c(F)cccc32)n2ncc(=O)c(OCOC(=O)C(C)(C)N)c2C1=O
[1]
  IC50: < 0.25 µM
[2]
  EC50: < 20 µM

## CCCN1C[C@H](C2c3cccc(F)c3CCc3c(F)cccc32)n2ncc(=O)c(OCOC(=O)[C@@H](N)Cc3ccccc3)c2C1=O
[1]
  IC50: < 0.25 µM
[2]
  EC50: < 20 µM

## O=C1c2c(O)c(=O)cnn2[C@@H](C2c3cccc(F)c3CCc3c(F)cccc32)CN1CCC(F)(F)F
[1]
  IC50: < 0.25 µM
[2]
  EC50: < 20 µM

## CN1C[C@H]([C@H](c2ccccc2)n2cccn2)n2ncc(=O)c(O)c2C1=O (relative stereo)
[1]
  IC50: < 0.25 µM
[2]
  EC50: < 20 µM

## CCCN1C[C@H](C(c2cccc(Cl)c2)c2cccc(Cl)c2)n2ncc(=O)c(OC(=O)C(C)C)c2C1=O
[1]
  IC50: < 0.25 µM
[2]
  EC50: < 20 µM

## CC[C@@H](C)[C@@H](N)C(=O)OCOc1c2n(ncc1=O)[C@@H](C1c3cccc(F)c3CCc3c(F)cccc31)CN(C(C)C)C2=O
[1]
  IC50: < 0.25 µM
[2]
  EC50: < 20 µM

## CN1C[C@H]([C@H](c2ccccc2)n2nc(CO)c3ccccc32)n2ncc(=O)c(O)c2C1=O (relative stereo)
[1]
  IC50: < 0.25 µM
[2]
  EC50: < 20 µM

## CN1C[C@H]([C@H](c2ccccc2)c2cn(C)c3cnccc23)n2ncc(=O)c(O)c2C1=O (relative stereo)
[1]
  IC50: < 0.25 µM
[2]
  EC50: < 20 µM

## O=C1c2c(O)c(=O)cnn2[C@@H](C(c2ccccc2)c2ccccc2)CN1CC(F)(F)F
[1]
  IC50: < 0.25 µM
[2]
  EC50: < 20 µM

## CCOC(=O)OC(C)Oc1c2n(ncc1=O)[C@@H](C1c3cccc(F)c3CCc3c(F)cccc31)CN(C(C)C)C2=O (stereo partly drawn)
[1]
  IC50: > 1 µM
[2]
  EC50: < 20 µM

## CN1C[C@H]([C@@H](c2ccccc2)n2nc(CO)c3ccccc32)n2ncc(=O)c(O)c2C1=O (relative stereo)
[1]
  IC50: < 0.25 µM
[2]
  EC50: < 20 µM

## CCOC(=O)O[C@@H](C)Oc1c2n(ncc1=O)[C@@H](C1c3ccccc3CCc3ccccc31)CN(C(C)C)C2=O
[1]
  IC50: < 0.25 µM

## CCCN1C[C@H](C2c3cccc(F)c3CCc3c(F)cccc32)n2ncc(=O)c(O[C@@H](C)OC(=O)OCC)c2C1=O
[1]
  IC50: < 0.25 µM
[2]
  EC50: < 20 µM

## O=C1c2c(O)c(=O)cnn2[C@@H](C2c3cccc(F)c3CCc3c(F)cccc32)CN1CC(F)(F)F
[1]
  IC50: < 0.25 µM
[2]
  EC50: < 20 µM

## CCCN1C[C@H](C2c3cccc(F)c3CCc3c(F)cccc32)n2ncc(=O)c(OCOC(=O)[C@H](N)C(C)C)c2C1=O
[1]
  IC50: < 0.25 µM
[2]
  EC50: < 20 µM

## CCn1cc([C@H](c2ccccc2)[C@H]2CN(C)C(=O)c3c(O)c(=O)cnn32)c2ccccc21 (relative stereo)
[1]
  IC50: 0.25 to 1 µM
[2]
  EC50: < 20 µM

## CN1C[C@H](C(c2cccc(Cl)c2)c2cccc(Cl)c2)n2ncc(=O)c(O)c2C1=O
[1]
  IC50: < 0.25 µM
[2]
  EC50: < 20 µM

## CN1C[C@H]([C@@H](c2ccccc2)n2cc(C#CC3COC3)c(C#CC3COC3)n2)n2ncc(=O)c(O)c2C1=O (relative stereo)
[1]
  IC50: > 1 µM

## CCOC(=O)O[C@H](C)Oc1c2n(ncc1=O)[C@@H](C1c3ccccc3CCc3ccccc31)CN(C(C)C)C2=O
[1]
  IC50: < 0.25 µM
